A mixed list of measured activities; the numbers were collected in NIAID ChemDB.

Shared fields: growth or infection tests

MIC50, MIC90 and the like: level of inhibition, or share of isolates inhibited.

compound,species,conditions,strain,measure,tested at,read by,result
CCCCCCCCC(CCCCCCCC)OC(=O)NC(CCC(=O)O)(CCC(=O)O)CCC(=O)O,Mycobacterium chelonae,,EO-P-1,MIC,,,71 µg/mL
CC1(C)N=C(N)N=C(N)N1OCCCOc1cc(Cl)c(Cl)cc1Cl,Mycobacterium avium complex,,DW23,MIC,,,2 µg/mL
CCCCCCCCCCCCCCCCCCCCCCCCCCCCCCOC(=O)NC(C)(CCC(=O)O)CCC(=O)O,Mycobacterium marinum,,ATCC 927,MIC,,,105 µg/mL
CO[C@@]1(NC(=O)C2SC(=C(C(N)=O)C(=O)[O-])S2)C(=O)N2C(C(=O)[O-])=C(CSc3nnnn3C)CS[C@@H]21,Mycobacterium fortuitum,,AO5,MIC,,,25 µg/mL
CC[C@H]1OC(=O)[C@H](C)[C@@H](O[C@H]2C[C@@](C)(OC)[C@@H](OC(C)=O)[C@H](C)O2)[C@H](C)[C@@H](O[C@@H]2O[C@H](C)C[C@H](N(C)C)[C@H]2OC(=O)NNCc2cccc(OC)c2)C(C)(O)C[C@@H](C)/C(=N\OCCCC2CCCCC2)[C@H](C)[C@@H](O)[C@]1(C)O,Mycobacterium avium complex,,20039 (clarithromycin-susceptible),MIC,,,0.78 µg/mL
Cc1cn2c(C(=O)NCc3ccc(N4CCC(c5ccc(OC(F)(F)F)cc5)CC4)c(Cl)c3)c(C)nc2s1.Cl,Mycobacterium avium,,,inhibition,0.35 µM,fluorescence,85%
CO[C@H]1/C=C/O[C@@]2(C)Oc3c(C)c(O)c4c(=O)c(c5oc6cc(N7CCN(CC(C)C)CC7)cc(=O)c6nc5c4c3=C2O)NC(=O)/C(C)=C\C=C\[C@H](C)[C@H](O)[C@@H](C)[C@@H](O)[C@@H](C)[C@H](OC(C)=O)[C@@H]1C,Mycobacterium ulcerans,,Isolate 5155,MBC,,,0.025 µg/mL
CCCCCCCCCN(CCCCCCCCC)C(=O)NC(CCC(=O)O)(CCC(=O)O)CCC(=O)O,Mycobacterium abscessus,,AAy-P-1,MIC,,,72 µg/mL
CC[C@H]1OC(=O)[C@H](C)[C@@H](OC2C[C@@](C)(OC)[C@@H](O)[C@H](C)O2)[C@H](C)[C@@H](O[C@@H]2O[C@H](C)C[C@H](N(C)C)[C@H]2O)C(C)(O)C[C@@H](C)/C(=N\OCCCCCc2ccccc2)[C@H](C)[C@@H](O)[C@]1(C)O,Mycobacterium avium complex,,20092 (clarithromycin-resistant),MIC,,,6.25 µg/mL
CC(C)N=C(N)/N=C(\N)NOCCCOc1cc(Cl)c(Cl)cc1Cl,Mycobacterium avium complex,,F8074,MIC,,,16 µg/mL
CO[C@H]1/C=C/O[C@@]2(C)Oc3c(C)c(O)c4c(O)c(c5c(c4c3C2=O)NC2(CCN(CC(C)C)CC2)N=5)=NC(=O)/C(C)=C\C=C\[C@H](C)[C@H](O)[C@@H](C)[C@@H](O)[C@@H](C)[C@H](OC(C)=O)[C@@H]1C,Mycobacterium avium intracellulare,,1296,MIC,,,0.125 µg/mL
Cc1ccc2oc(=S)n(-c3cccc(Cl)c3)c(=S)c2c1,Mycobacterium kansasii,14 d,My 235/80,MIC,,,2 µM
CCCC(=O)O[C@H]1[C@H](C)[C@@H](O[C@@H]2O[C@H](C)C[C@H](N(C)C)[C@H]2O)C(C)(O)C[C@@H](C)/C(=N\OCCCOc2ccccc2)[C@H](C)[C@@H](O)[C@](C)(O)[C@@H](CC)OC(=O)[C@@H]1C,Mycobacterium avium complex,,20039 (clarithromycin-susceptible),MIC,,,6.25 µg/mL
CCc1nc(N)nc(N)c1-c1ccc(Cl)cc1,Mycobacterium avium complex,,DW3,MIC,,,32 µg/mL
CC[C@H]1OC(=O)[C@H](C)[C@@H](OC2C[C@@](C)(OC)[C@@H](O)[C@H](C)O2)[C@H](C)[C@@H](O[C@@H]2O[C@H](C)C[C@H](N(C)C)[C@H]2O)C(C)(O)C[C@@H](C)/C(=N\OCCC2CCCCC2)[C@H](C)[C@@H](O)[C@]1(C)O,Mycobacterium avium intracellulare,,20066 (clarithromycin-susceptible),MIC,,,6.25 µg/mL
CCCCCCCC(CCCCCCC)NC(=O)NC(CCC(=O)O)(CCC(=O)O)CCC(=O)O,Mycobacterium abscessus,,AAy-P-1,MIC,,,144 µg/mL
CCCCCCCCNNC(=O)O[C@H]1[C@H](O[C@@H]2[C@@H](C)[C@H](O[C@H]3C[C@@](C)(OC)[C@@H](OC(C)=O)[C@H](C)O3)[C@@H](C)C(=O)O[C@H](CC)[C@@](C)(O)[C@H](O)[C@@H](C)/C(=N/OCCCC3CCCCC3)[C@H](C)CC2(C)O)O[C@H](C)C[C@@H]1N(C)C,Mycobacterium avium complex,,20039 (clarithromycin-susceptible),MIC,,,6.25 µg/mL
COc1ccc2oc(=O)n(-c3ccc(Cl)c(Cl)c3)c(=S)c2c1,Mycobacterium kansasii,14 d,6509/96,MIC,,,62.5 µM
CC[C@H]1OC(=O)[C@H](C)[C@@H](OC2C[C@@](C)(OC)[C@@H](OC(=O)CCc3ccccc3)[C@H](C)O2)[C@H](C)[C@@H](O[C@@H]2O[C@H](C)C[C@H](N(C)C)[C@H]2O)C(C)(O)C[C@@H](C)/C(=N\OCCCOc2ccccc2)[C@H](C)[C@@H](O)[C@]1(C)O,Mycobacterium avium complex,,20096 (clarithromycin-resistant),MIC,,,1.56 µg/mL
O=c1oc2ccc(F)cc2c(=S)n1-c1cccc(F)c1,Mycobacterium kansasii,21 d,My 235/80,MIC,,,16 µM
CC[C@H]1OC(=O)[C@H](C)[C@@H](O[C@H]2C[C@@](C)(OC)[C@@H](OC(C)=O)[C@H](C)O2)[C@H](C)[C@@H](O[C@@H]2O[C@H](C)C[C@H](N(C)C)[C@H]2O)C(C)(O)C[C@@H](C)/C(=N\OCCCCc2ccccc2)[C@H](C)[C@@H](O)[C@]1(C)O,Mycobacterium avium complex,,20096 (clarithromycin-resistant),MIC,,,1.56 µg/mL
Fc1ccc(-n2c(=S)oc3ccc(Br)cc3c2=S)cc1,Mycobacterium kansasii,21 d,My 235/80,MIC,,,16 µM
Cc1ccc2nc(C)c(C(=O)NCc3ccc(C4CCN(c5ccc(OC(F)(F)F)cc5)CC4)c(F)c3)n2c1,Mycobacterium avium,,,inhibition,0.0016 µM,fluorescence,85%
C[C@@H](O)[C@H]1C(=O)N2C(C(=O)O)=C(SCCN=CN)C[C@H]12,Mycobacterium fortuitum,,4-May,MIC,,,3.12 µg/mL
CC[C@H]1OC(=O)[C@H](C)[C@@H](O[C@H]2C[C@@](C)(OC)[C@@H](OC(C)=O)[C@H](C)O2)[C@H](C)[C@@H](O[C@@H]2O[C@H](C)C[C@H](N(C)C)[C@H]2OC(=O)NNC2CCCCC2)C(C)(O)C[C@@H](C)/C(=N\OCCCC2CCCCC2)[C@H](C)[C@@H](O)[C@]1(C)O,Mycobacterium avium intracellulare,,20066 (clarithromycin-susceptible),MIC,,,0.39 µg/mL
Fc1cccc(-n2c(=S)oc3ccc(Cl)cc3c2=S)c1,Mycobacterium kansasii,21 d,My 235/80,MIC,,,16 µM
CC[C@H]1OC(=O)[C@H](C)[C@@H](O[C@H]2C[C@@](C)(OC)[C@@H](OC(C)=O)[C@H](C)O2)[C@H](C)[C@@H](O[C@@H]2O[C@H](C)C[C@H](N(C)C)[C@H]2OC(=O)NNCCCCCc2ccccc2)C(C)(O)C[C@@H](C)/C(=N\OCCCC2CCCCC2)[C@H](C)[C@@H](O)[C@]1(C)O,Mycobacterium avium complex,,20092 (clarithromycin-resistant),MIC,,,6.25 µg/mL
CCCCCCCCCCCCCCCCC(=O)NC(CCC(=O)O)(CCC(=O)O)CCC(=O)O,Mycobacterium abscessus,,AAy-P-1,MIC,,,144 µg/mL
S=c1oc2ccc(Br)cc2c(=S)n1-c1ccc(Br)cc1,Mycobacterium kansasii,14 d,My 235/80,MIC,,,4 µM
CO[C@@]1(NC(=O)Cc2cccs2)C(=O)N2C(C(=O)O)=C(COC(N)=O)CS[C@@H]21,Mycobacterium fortuitum,,914-8,MIC,,,6.25 µg/mL
O=C(NCc1ccc(CN2CCOCC2)nc1)c1c(Cl)nc2ccccn12,Mycobacterium ulcerans,,,MIC50,,fluorescence,1–10 µg/mL
CCc1nc2ccc(Cl)cn2c1C(=O)NCc1ccc(C2CCN(c3ccc(OC(F)(F)F)cc3)CC2)c(F)c1,Mycobacterium avium,,,inhibition,0.033 µM,fluorescence,85%
CO[C@@]1(NC(=O)Cc2ccccc2)C(=O)N2C(C(=O)O)=C(COC(C)=O)CSC21,Mycobacterium fortuitum,,4-May,MIC,,,50 µg/mL
O=C(NCc1ccc(N2CCOCC2)nc1)c1c(Cl)nc2ccccn12,Mycobacterium ulcerans,,,MIC50,,fluorescence,1–10 µg/mL
CCc1nc2ccc(Cl)cn2c1C(=O)NCc1ccc(C2CCN(c3ccc(OC4CC4)cc3)CC2)c(F)c1.Cl,Mycobacterium avium,,,inhibition,0.039 µM,fluorescence,85%
CC(NC(=O)c1c(Cl)nc2ccccn12)c1ccc(N2CCN(C)CC2)cc1,Mycobacterium ulcerans,,,MIC50,,fluorescence,>10 µg/mL
CO[C@@]1(NC(=O)CSCC#N)C(=O)N2C(C(=O)O)=C(CSc3nnnn3C)CS[C@@H]21,Mycobacterium fortuitum,,1048,MIC,,,6.25 µg/mL
O=C(NCc1ccc(CN2CCCCC2)cc1)c1c(Cl)nc2ccccn12,Mycobacterium ulcerans,,,MIC50,,fluorescence,>10 µg/mL
Cc1nc2ccc(Cl)cn2c1C(=O)NCc1ccc(N2CCC(c3ccc(OC(F)(F)F)cc3)CC2)c(F)c1.Cl,Mycobacterium avium,,,inhibition,0.012 µM,fluorescence,85%
CCCCCCCCCCCCCC(=O)NC(CCC(=O)O)(CCC(=O)O)CCC(=O)O,Mycobacterium abscessus,,AAy-P-1,MIC,,,144 µg/mL
Cc1ccc2ncc(C(=O)NCc3ccc(N4CCOCC4)cc3)n2c1,Mycobacterium ulcerans,,,MIC50,,fluorescence,>10 µg/mL

For reference, 6 entries again:

{"compound": "Cc1ccc2ncc(C(=O)NCc3ccc(N4CCOCC4)cc3)n2c1", "species": "Mycobacterium ulcerans", "measure": "MIC50", "read by": "fluorescence", "result": ">10 µg/mL"}
{"compound": "CCCCCCCCNNC(=O)O[C@H]1[C@H](O[C@@H]2[C@@H](C)[C@H](O[C@H]3C[C@@](C)(OC)[C@@H](OC(C)=O)[C@H](C)O3)[C@@H](C)C(=O)O[C@H](CC)[C@@](C)(O)[C@H](O)[C@@H](C)/C(=N/OCCCC3CCCCC3)[C@H](C)CC2(C)O)O[C@H](C)C[C@@H]1N(C)C", "species": "Mycobacterium avium complex", "strain": "20039 (clarithromycin-susceptible)", "measure": "MIC", "result": "6.25 µg/mL"}
{"compound": "CO[C@@]1(NC(=O)CSCC#N)C(=O)N2C(C(=O)O)=C(CSc3nnnn3C)CS[C@@H]21", "species": "Mycobacterium fortuitum", "strain": "1048", "measure": "MIC", "result": "6.25 µg/mL"}
{"compound": "CO[C@@]1(NC(=O)Cc2cccs2)C(=O)N2C(C(=O)O)=C(COC(N)=O)CS[C@@H]21", "species": "Mycobacterium fortuitum", "strain": "914-8", "measure": "MIC", "result": "6.25 µg/mL"}
{"compound": "Cc1ccc2nc(C)c(C(=O)NCc3ccc(C4CCN(c5ccc(OC(F)(F)F)cc5)CC4)c(F)c3)n2c1", "species": "Mycobacterium avium", "measure": "inhibition", "tested at": "0.0016 µM", "read by": "fluorescence", "result": "85%"}
{"compound": "CCCCCCCCC(CCCCCCCC)OC(=O)NC(CCC(=O)O)(CCC(=O)O)CCC(=O)O", "species": "Mycobacterium chelonae", "strain": "EO-P-1", "measure": "MIC", "result": "71 µg/mL"}

Percent inhibition refers to the dose given; in toxicity tests it is the harm to the cells. An empty or dashed field is not shown. a–b is a range or a potency band. Conditions beyond the fields shown may differ between rows.